In patent US20120264793A1, “Pharmaceutical Use of 2',2-Bis-Thiazole Non-Nucleoside Compounds as Hepatitis C Virus Inhibitor” (Shanghai Institute of Materia Medica, Chinese Academy of …, priority 2009, published 2012):
Which two values form the index is not stated here.

system: HCV (J399E) inserted with enhanced green fluorescent protein (EGFP); format: cell-based, Hepatitis C Virus; settings: not given
Procedure: The in vitro anti-HCV activity assay of the 2′,2-bis-thiazole non-nucleoside compounds at cellular level was performed by using an anti-HCV activity assay protocol recognized by one skilled in the art.
The variation of the green fluorescence intensity was recorded on a microplate reader and cytotoxicity was measured at the same time, so as to evaluate the influence of the compound on the replication activity of HCV.
Compounds to be tested were dissolved in DMSO to prepare a stock solution before the test. Upon using, the stock solution was diluted to a desired concentration with DMEM (Dulbecco's Modified Eagle Media, purchased from GibcoBRL company (Life Technologies, Grand Island, N.Y., USA)) containing 10% FBS (fetal bovine serum, purchased from Hyclone company (Logan, Utah, USA)).
Positive control: ribavirin (purchased from Sigma/Aldrich). It was dissolved in DMSO to prepare a stock solution and stored at −20° C. before use, and diluted to a desired concentration upon using.
Huh7.5.1 cells (10% FBS, DMEM) at 10^5 cells/ml were inoculated on a 96-well plate (Costar 3904) with 100 μl per well. 24 h later, the supernatant of the culture media was sucked out, and 50 μl of virus supernatant with MOI=0.1 was added. 8 h later, 50 μl of the testing compound solution was added and 100 μl of culture media was supplemented. After incubation for 72 h, the supernatant was sucked out, and read on a fluorescent microplate reader (Ex=488 nm, Em=516 nm). Then each well was added with 20 μl of MTT (5 mg/ml) and additional 50 μl of culture media. 4 h later, 100 μl of MTT lysis solution was added. 6 h later, reading was performed at a wavelength of 570 nm.

Structure (SMILES)	SI (bioactivity selective index)
O=C(O)c1nc(-c2nccs2)sc1Cc1ccccc1 [Compound C302]	2.6
CC(C)Cc1sc(-c2nccs2)nc1C(=O)Nc1ccccc1 [Compound C343]	>5.2
CCOC(=O)/C=C/c1nc(-c2nccs2)sc1CC(C)C [Compound C322-2]	>10.2
CCC(=O)c1nc(-c2nccs2)sc1CC(C)C [Compound C280-4]	>11.2
CNC(=O)c1nc(-c2nccs2)sc1CC(C)C [Compound C281]	>7.4
CCOC(=O)CCc1nc(-c2nccs2)sc1CC(C)C [Compound C324-5]	>2.7

same assay, conditions: from CC50 and IC50 in Huh7.5.1 cells; SI greater than 2 means effective

Structure (SMILES)	SI (bioactivity selective index)
CC(C)Cc1sc(-c2nccs2)nc1C(N)=O [Compound C267]	>20.4
